Source: paper PMC3642082

Experiments:
[1] = biological target: PGT122+gp120 complex (human | HIV-1 JRFL) (UniProt Q75760); experiment: ITC; sequential binding: the mixed sample of the first titration left in the cell, then Fab or sCD4 added in a second titration; 20 mM Tris, 150 mM NaCl, pH 8.0; single-site binding model
[2] = biological target: PGT123+gp120 complex (human | HIV-1 JRFL) (UniProt Q75760); experiment: as above
[3] = biological target: PGT121+gp120 complex (human | HIV-1 JRFL) (UniProt Q75760); experiment: as above
[4] = biological target: SOSIP.664 gp140 trimer of Clade A KNH1144 sequence (HIV-1 clade A KNH1144); experiment: ITC

soluble CD4 (from UniProt P01730) (receptor)
Kd [1]: 11.2 µM | Kd [2]: 2.2 µM | Kd [3]: 13.4 µM | Kd [4]: 0.579 µM | dH [4]: -23.9 kcal/mol | stoichiometry N [4]: 2.2
